Results deposited as PubChem BioAssay AID1224833 (University of Georgia, 2016).
Test: 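Host factors restraining rotavirus as candidate antiviral genes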 (primary screen). Cells: monkey MA104 kidney cells. Reagents: siRNA pool against human genes, 50 nM. Duration: 48 h knock-down before infection; read 24 h after infection. Conditions: infection with rotavirus strain RV3 two days after transfection; infectious dose for this stage not given. Measured: 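z-score of rotavirus antigen signal per well, from a fluorescent immunoassay, relative to non-targeting control wells on the same plate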. Scale: z-score vs non-targeting control: higher = more rotavirus replication than with non-targeting control. Call rule: In these data the active calls have z-score vs non-targeting control at about -1 or lower, or at about 1 or higher. Meaning of the calls: active = z-score beyond 1 either way; inactive = z-score within 1 of zero.
In all, the deposit lists about 12,000 reagents; this is an unselected part. Over the whole deposit, about 5,600 (46%) got an active call. 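Active calls cover z-scores past 1 in both directions, so they include lowered as well as raised rotavirus replication.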 Unmarked entries are inactive. No sequences are given here.

target	z-score vs non-targeting control
ANO4 (anoctamin 4)	-0.764
CDC5L (cell division cycle 5 like)	-0.537
MDGA1 (MAM domain containing glycosylphosphatidylinositol anchor 1)	-0.452
IQSEC2 (IQ motif and Sec7 domain ArfGEF 2)	-0.452
ASTE1 (asteroid structure-specific endonuclease 1)	-0.488
MTPN (myotrophin)	-1.34 (active)
SEC31B (SEC31 homolog B, COPII component)	-0.532
CD300LG (CD300 molecule like family member g)	0.831
RIOX1 (ribosomal oxygenase 1)	-0.523
HSPA1B (heat shock protein family A (Hsp70) member 1B)	-3.29 (active)
NFKBIA (NFKB inhibitor alpha)	-0.495
MPZL1 (myelin protein zero like 1)	0.294
SLC16A9	2.44 (active)
DENR (density regulated re-initiation and release factor)	-2.06 (active)
TCF25 (TCF25 ribosome quality control complex subunit)	-0.762
CHST8 (carbohydrate sulfotransferase 8)	-0.617
PKNOX2 (PBX/knotted 1 homeobox 2)	-0.223
INHBC (inhibin subunit beta C)	1.21 (active)
PTRH2 (peptidyl-tRNA hydrolase 2)	-1.5 (active)
CCZ1 (CCZ1 vacuolar protein trafficking and biogenesis associated)	0.265
FUT2 (fucosyltransferase 2 (H blood group))	-1.03 (active)
SP100 (SP100 nuclear body protein)	0.318
ATP6V0C (ATPase H+ transporting V0 subunit c)	-1.37 (active)
ZKSCAN4 (zinc finger with KRAB and SCAN domains 4)	-0.762
PDCL2 (phosducin like 2)	-2.06 (active)
APPBP2 (amyloid beta precursor protein binding protein 2)	-0.599
INTS2 (integrator complex subunit 2)	0.954
LRRC39 (leucine rich repeat containing 39)	0.198
RAB6A (RAB6A, member RAS oncogene family)	0.552
SLC35D4	1.11 (active)
NAT2 (N-acetyltransferase 2)	0.674
RUNDC3A (RUN domain containing 3A)	0.231
KIF24 (kinesin family member 24)	-0.094
HIVEP3 (HIVEP zinc finger 3)	-1.12 (active)
PPIL3 (peptidylprolyl isomerase like 3)	-1.24 (active)
CIDEB (cell death inducing DFFA like effector b)	0.612
PSEN1 (presenilin 1)	-0.58
ZNF514 (zinc finger protein 514)	1.02 (active)
DCAF8 (DDB1 and CUL4 associated factor 8)	0.944
COL13A1 (collagen type XIII alpha 1 chain)	-1.99 (active)
DEFB118 (defensin beta 118)	-4.05 (active)
C1orf210 (chromosome 1 open reading frame 210)	2.49 (active)
HPSE2 (heparanase 2 (inactive))	0.851
MRPL36 (mitochondrial ribosomal protein L36)	-1.84 (active)
NOMO3 (NODAL modulator 3)	-0.575
ALG9 (ALG9 alpha-1,2-mannosyltransferase)	-1.28 (active)
GLI3 (GLI family zinc finger 3)	-1.49 (active)
NPAS1 (neuronal PAS domain protein 1)	-0.523
MBD5 (methyl-CpG binding domain protein 5)	-1.17 (active)
CAMLG (calcium modulating ligand)	-0.506
OR10Q1 (olfactory receptor family 10 subfamily Q member 1)	2.76 (active)
PDS5B (PDS5 cohesin associated factor B)	0.603
BCL2L1 (BCL2 like 1)	-1.65 (active)
MTHFD1L	-1.42 (active)
CMTM3 (CKLF like MARVEL transmembrane domain containing 3)	-2.39 (active)
EN1 (engrailed homeobox 1)	1.34 (active)
FRRS1L (ferric chelate reductase 1 like)	-0.58
PRXL2A (peroxiredoxin like 2A)	-0.718
CLP1 (cleavage factor polyribonucleotide kinase subunit 1)	-0.633
XRCC4 (X-ray repair cross complementing 4)	1.32 (active)
FSD2 (fibronectin type III and SPRY domain containing 2)	-2.18 (active)
HADHB	-1.2 (active)
VCL (vinculin)	0.593
ZNF619 (zinc finger protein 619)	-0.391
SLC71A2	1.63 (active)
RALGPS2 (Ral GEF with PH domain and SH3 binding motif 2)	-0.777
ARMH4 (armadillo like helical domain containing 4)	0.618
MAG (myelin associated glycoprotein)	0.265
FHL5 (four and a half LIM domains 5)	0.162
GOLPH3 (golgi phosphoprotein 3)	0.28
SRSF2 (serine and arginine rich splicing factor 2)	-1.07 (active)
NDST3 (N-deacetylase and N-sulfotransferase 3)	1.75 (active)
TAS2R60 (taste 2 receptor member 60)	0.848
RRM1 (ribonucleotide reductase catalytic subunit M1)	-3.06 (active)
BANK1 (B cell scaffold protein with ankyrin repeats 1)	0.209
PDZD8 (PDZ domain containing 8)	0.692
MON1B (MON1 vesicular trafficking associated B)	-0.195
PSMA1 (proteasome 20S subunit alpha 1)	0.841
GAL3ST1 (galactose-3-O-sulfotransferase 1)	-0.77
OR2H2 (olfactory receptor family 2 subfamily H member 2)	-0.436
LDHC (lactate dehydrogenase C)	-0.59
OR10S1 (olfactory receptor family 10 subfamily S member 1)	0.24
MFRP (membrane frizzled-related protein)	0.14
MBD3 (methyl-CpG binding domain protein 3)	0.202
ZNF81 (zinc finger protein 81)	-0.73
NOL11 (nucleolar protein 11)	0.472
ZNF232 (zinc finger protein 232)	1.33 (active)
ANKS1B (ankyrin repeat and sterile alpha motif domain containing 1B)	-0.0936
GLB1L (galactosidase beta 1 like)	-0.45
SASS6 (SAS-6 centriolar assembly protein)	0.663
KRT14 (keratin 14)	-0.105
DUOX1 (dual oxidase 1)	-1.26 (active)
CD300E (CD300e molecule)	-1.51 (active)
H1-1 (H1.1 linker histone, cluster member)	-2.49 (active)
EMC3 (ER membrane protein complex subunit 3)	4.59 (active)
HMGB3 (high mobility group box 3)	-0.451
SEC62 (SEC62 preprotein translocation factor)	-1.14 (active)
SAPCD1 (suppressor APC domain containing 1)	-2.44 (active)
POLR2A (RNA polymerase II subunit A)	-5.34 (active)
AAMP (angio associated migratory cell protein)	0.505
UBALD2 (UBA like domain containing 2)	0.802
KRTAP1-3 (keratin associated protein 1-3)	-1.17 (active)
AMZ1 (archaelysin family metallopeptidase 1)	1.09 (active)
DKK1 (dickkopf Wnt signaling pathway inhibitor 1)	1.4 (active)
CCL23 (C-C motif chemokine ligand 23)	-0.798
SUV39H2 (SUV39H2 histone lysine methyltransferase)	-1.8 (active)
DDHD1 (DDHD domain containing 1)	-0.52
HES3 (hes family bHLH transcription factor 3)	-1.72 (active)
OAF (out at first homolog)	-0.34
SNRPD3 (small nuclear ribonucleoprotein D3 polypeptide)	0.49
FRMD4A (FERM domain containing 4A)	0.919
KRT72 (keratin 72)	-0.0236
SETBP1 (SET binding protein 1)	1.29 (active)
DCTN4 (dynactin subunit 4)	0.726
TBX15 (T-box transcription factor 15)	0.911
IKZF3 (IKAROS family zinc finger 3)	-1.06 (active)
IER2 (immediate early response 2)	-3.59 (active)
TOB2 (transducer of ERBB2, 2)	0.889
C4orf46 (chromosome 4 open reading frame 46)	0.973
GCM2 (GCM transcription factor 2)	-0.736
CDH15 (cadherin 15)	-0.28
CRIPT (CXXC repeat containing interactor of PDZ3 domain)	-1.69 (active)
CPXCR1 (CPX chromosome region candidate 1)	-0.606
UBAP2 (ubiquitin associated protein 2)	-0.5
SPMIP5 (sperm microtubule inner protein 5)	-1.67 (active)
PAF1 (PAF1 component of Paf1/RNA polymerase II complex)	0.444
ZNF746 (zinc finger protein 746)	-0.455
ZNF622 (zinc finger protein 622)	1.3 (active)
ZDHHC14 (zDHHC palmitoyltransferase 14)	4.03 (active)
MACROH2A2 (macroH2A.2 histone)	-0.106
UNC5D (unc-5 netrin receptor D)	-0.882
CCNG1 (cyclin G1)	-1.31 (active)
HPCAL1 (hippocalcin like 1)	0.642
ELAPOR2	-1 (active)
AKIP1 (A-kinase interacting protein 1)	-0.0782
PRDM11 (PR/SET domain 11)	-1.87 (active)
GORASP2 (golgi reassembly stacking protein 2)	-0.806
ITSN2 (intersectin 2)	-0.705
ZCCHC2 (zinc finger CCHC-type containing 2)	0.121
BANF1 (barrier to autointegration nuclear assembly factor 1)	-0.315
